{"source": "paper PMC11788822", "about": "“Uncovering the potent antimicrobial activity of squaramide based anionophores – chloride transport and membrane disruption” (Chemical Science, 2025)", "system": "S. aureus cells", "assay": "STED nanoscopy of cellular distribution", "type": "cell-based, Staphylococcus aureus", "settings": "3 μM, 30 min, fixed cells", "data": [{"smiles": "CCN1C(=O)c2cccc3c(NCCNc4c(NC56CC7CC(CC(C7)C5)C6)c(=O)c4=O)ccc(c23)C1=O", "note": "[Compound 7]", "values": [{"measurement": "cellular distribution of fluorescence", "value": "membrane accumulation"}]}]}
